Laboratory results from publication PMC6980832, “Crystal structures of Triosephosphate Isomerases from Taenia solium and Schistosoma mansoni provide insights for vaccine rationale and drug design against helminth parasites” (PLoS Neglected Tropical Diseases, 2020).

System: O=CC(O)COP(=O)(O)O
Assay: purified protein
Settings: 0.1 M TEA-HCl pH 7.4, 10 mM EDTA, 0.2 mM NADH, 21 °C, G3P 0 to 5 mM, G3P to DHAP direction

Row | Substance | Km | kcat | kcat/Km
1 | SmTPI (Schistosoma mansoni; C221D) | 2840 ± 880 µM | 1220 s⁻¹ | 427000 M⁻¹ s⁻¹
2 | SmTPI (Schistosoma mansoni; C221K) | 2570 ± 930 µM | 1400 s⁻¹ | 541000 M⁻¹ s⁻¹
3 | SmTPI (Schistosoma mansoni; C221S) | 870 ± 120 µM | 2490 s⁻¹ | 2.84e+06 M⁻¹ s⁻¹
4 | SmTPI (Schistosoma mansoni; C221Y) | 1600 ± 500 µM | 875 s⁻¹ | 545000 M⁻¹ s⁻¹
